According to patent publication US4628104A, “Imidazole ketone derivatives” (G. D. Searle & Co., priority 1985, dated 1986):
Converted amounts (≈) assume the structure as drawn. Counter-ions that a name gives are not always drawn.

System: B. fragilis WS-1
Experiment: Anti-anaerobic activity, microtitre plate broth dilution, strain E
Format: cell-based
Conditions: Bacteroides fragilis, WS1, 48 h, 99.9% reduction in viable count, read-out: MBC (Minimum Bactericidal Concentration)

Structure (SMILES): Cc1ccc(C(Cn2ccnc2)C(=O)c2ccc(Cl)cc2Cl)cc1 (stereo not drawn) [Example 15, 1-(2,4-Dichlorophenyl)-3-(imidazol-1-yl)-2-(4-methylphenyl) propan-1-one]
- MBC: 0.8 µg/mL (≈ 2.23 µM)

Structure (SMILES): O=C(c1ccccn1)C(Cn1ccnc1)c1ccccc1 (stereo not drawn) [Example 21, 3-(Imidazol-1-yl)-2-phenyl-1-(2-pyridyl)propan-1-one]
- MBC: 25 µg/mL (≈ 90.1 µM)

Structure (SMILES): CSc1nccn1CC(C(=O)c1ccc(Cl)cc1Cl)c1ccccc1 (stereo not drawn) [Example 24, 1-(2,4-Dichlorophenyl)-2-phenyl-3-(2-thiomethylimidazol-1-yl)propan-1-one]
- MBC: 100 µg/mL (≈ 256 µM)

Structure (SMILES): O=C(c1cc(Cl)cc(Cl)c1)C(Cn1ccnc1)c1ccccc1 (stereo not drawn) [Example 18, 1-(3,5-Dichlorophenyl)-3-(imidazol-1yl)-2-phenyl propan-1-one]
- MBC: 12.5 µg/mL (≈ 36.2 µM)

Structure (SMILES): CCCCCCCC(=O)C(Cn1ccnc1)c1ccc(C)cc1 (stereo not drawn) [Example 17, 1-(Imidazol-1-yl)-2-(4-methylphenyl)decan-3-one hydrochloride]
- MBC: 100 µg/mL

Structure (SMILES): O=C(c1ccc(Cl)cc1Cl)C(Cn1cncn1)c1ccccc1 (stereo not drawn) [Example 23, 1-(2,4-Dichlorophenyl)-2-phenyl-3-(1,2,4-triazol-1-yl) propan-1-one]
- MBC: 0.8 µg/mL (≈ 2.31 µM)

Structure (SMILES): Cc1ccc(C(Cn2cncn2)C(=O)c2ccc(Cl)cc2Cl)cc1 (stereo not drawn) [Example 16, 1-(2,4-Dichlorophenyl)-2-(4-methylphenyl)-3-(1,2,4-triazol-1-yl)propan-1-one hydrochloride]
- MBC: 3.1 µg/mL

Structure (SMILES): O=C(c1cccnc1)C(Cn1ccnc1)c1ccccc1 (stereo not drawn) [Example 19, 3-(Imidazol-1-yl)-2-phenyl-1-(3-pyridyl)propan-1-one]
- MBC: 25 µg/mL (≈ 90.1 µM)

Structure (SMILES): O=C(c1ccc(Cl)cc1Cl)C(Cn1ccnc1)c1ccccc1 (stereo not drawn) [Example 2, 1-(2,4-Dichlorophenyl)-3-(imidazol-1-yl)-2-phenylpropan-1-one]
- MBC: 0.8 µg/mL (≈ 2.32 µM)
